For at least one entry, the source does not settle the construct or the ends of the probe.

This series concerns the target HrpG (Xanthomonas campestris pv. campestris 8004) (UniProt Q8PBF6). In words: EMSA. To be noted: EMSA: 10 mM Tris-HCl pH 7.5, 50 mM KCl, 1 mM DTT, 50 ng poly(dI:dC), 0-40 uM protein, 28 C 30 min; recombinant protein; label: 32P; probe letters rebuilt from the primers and the genome. In general terms: Mobility shift assays separate free from complexed probe on a gel.
In the case of “GGCCGCTATTGCTGCACCCCCATTCTGAGCGAGCCGTCGCCGGACGATCCGCTTCCAAGGCGAACGTGTGCATGGGTGTACGAAGCACGACGTGTTTGTTCGCGATGGCATTCCGATGTTCGCTTCTGAAAAGTCTTCGTTGGCGCCGAAGCGTACGTTACGCACGCATGCTGTCCACGGCCATTGAATGAAGAGGTGCGGTATGGAAAAGATTGAATGTCCCGGTTCGGTCGTGAGCGGGCTG (double strand) [hrcUp EMSA probe]”, the binding result is recorded as “binds”.

Consider “GGCTCTCTCCAGGGCACTGGGGTGCAATGACGCGCTCAGCCCCCCTAGGCCACCGGCGTCGAACGAAACATCACGCCCACCGCGTTGCATGCGTGCGTCTCGGCAGCGCATACACGGCGATCAAGCGTTTGCAATGGGGCCCGCTGCGCGTGTGCGCAGCGGGCGGGTGACACTCAGAACTTGTAGCGCAGGCCCAGCAGGTACTGGCGGCCGGTTTCACCGTATTGCAGCGGCAGCTGGCCGGTGCGCGGCGACGACACCCATTCGTCGGAGGCTTCGTTGGTG (double strand) [XC0124 promoter EMSA probe]”, for which the binding result is “binds”.

For “TCCACCAGCTGGTTTTCCACGCGCGAGCGCGCCCAGGTGGTGGCGAAGGCGAACAGCGTCGTCAGGCAGAAGCCCAGCAACACGAACGAGAGAATGATGCGGCTGCGCAGGCGCCGCCGGTAGCGGCCACGCCTGCGGGCGGGCCGCGTTCCGCTGGAGCTCTCAGGCATCGGGCGAGGCGATGCGGTAGCCGATGCCGTGACGGGTCTGGATCATCGGTACGTCGAACGGCTTGTCCACCAC (double strand) [vgrSp EMSA probe]”, the binding result is recorded as “binds”.

“GAAGAGAAGTAACGTGGAGCGCTTGTCGGCGCGTTTTGCTTGACCAACGTGGCCAAGGAAATCGATGATCAAGGCATGCTGGCGATGTGCGCGACGATGTCTTGTGCAGCGTTGATGCCGTCGTGCAAGACAATGAAATCGTTGCGCGCAGCCTGATCGCTCGCGGCGGACCAATGCACACGGAGTTGTTGCGCTGTCGCGTGCAGCGCTGCCTCGATGTTGCGCAGTCGCTCGCCTGAGAGATCCTGCGCCTTGGTCTGCAAGATCTTGCTCATATCCTGGGTGAGCGTGTC (double strand) [hrpEp EMSA probe]”: the binding result is given as “binds”.

Regarding “AGCATGCAGCAATCACACGCACAAGACATGTTGCAGCGCAGTGGCACGGTGTCCTGTCTCCGCTGTCCATTGCTGTCTCTTTTGCGTGTCTCTCTGCGCGAATGCCGCGGTCTGTCAAATTTCCACAACTGGATAATTGTTTTCTGTTTCAAGACGCGCGAAGAATGCACGCCCCCACGCACCGCGTTGCCGTCGTCATGCACTCGCTGACGCCCTGCAGCGTTTTCGAATTCC (double strand) [XC1298 promoter EMSA probe]”, the binding result is “binds”.

In the case of “GGATTAACGGCCATTTGACATTGAGCGCGAGCGATCGCAGATGTTTAGCGCGCCTTCGCGCATCTGCGTGCCGAACACCGCATCCGTACGCCCACGCATCGTCCTGTGATGCACCGTCAAGATACGCCGGCGCATCGTCTGGCCTTCGTCGCTATGCAGGTGCGGGATCCACTTCGCAGTTTGCAAGACAGAGTGAGAATTTTTGAATTTCTAGCTGCTGCGAAGTGAGAAATTCTATTGGATCCGCTGCATACAATCGTTTGCGCCCACCACAACGGCGCCTTTTGTTGTTTTTGCTCCTCCCCTTCAG (double strand) [hrpXp EMSA probe]”, the binding result is reported as “binds”.

“CCGTTATGGTGCTGCGATCGAGCGAAGCGTTGGATCAATCGAGGTGTGCGTCCACGCCGCTGCGTTGCTCGAATCAACGACGATCAGGTGACAGGCATGAAAGAGACCGATACGCCGACCACGTGTGCGTCCGTGCACGGCACGGGTGCTTGGCGTCCACAGTGCTGGGCCACGCTCTGCAGCAACATGCGAGCAGACCAGCGACGCTGTGCGCTTCAGCCCGGGCAGGCTGCTGCCCCTCTGCGACG (double strand) [hpa2p EMSA probe]”: the binding result is “binds”.

Regarding “GTTCTCCTGTCAGAACTTGTAGCGCGCGCCGACGTAGTACTGGCGCCCGGTGACGGTGTATTTGTCGGGCAGTTCCAGTGCGGAATCGACGTAGCGGCGGTCGGGGGTATCGAGCAGGTTGATGGCCTCAAACGTCAGCGACAGGTGGTCGCTGATCTTGTAGGACATGTTGAAATCGACGTTTTCCACGCTGTATTTGCCGGTGACATCGGCGGTGGCCAGGCGCTGGCCATCGAGGTTGTAGACGTCTTCCTGGGCGAGGATGTTGTTGATGT (double strand) [XC0125 promoter EMSA probe]”, the binding result is “binds”.

The values are drawn from paper PMC7036363, “Analysis of HrpG regulons and HrpG‐interacting proteins by ChIP‐seq and affinity proteomics in Xanthomonas campestris”.
